Values from PubChem BioAssay AID1224833 (University of Georgia, 2016).
In all, the deposit lists about 12,000 reagents; below is a random part of them. Over the whole deposit, about 5,600 (46%) got an active call. 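Active calls cover z-scores past 1 in both directions, so they include lowered as well as raised rotavirus replication.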 A number with no mark means an inactive call.

Assay: 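Human genes whose knock-down alters rotavirus replication in monkey cells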 (primary screen)
Cell system: monkey MA104 kidney cells
Reagents: siRNA pool against human genes, 50 nM
Time to read-out: 48 h knock-down before infection; read 24 h after infection
Treatment: infection with rotavirus strain RV3 two days after transfection; infectious dose for this stage not given
Measurement: 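z-score of rotavirus antigen signal per well, from a fluorescent immunoassay, relative to non-targeting control wells on the same plate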
Direction: z-score vs non-targeting control: higher = more rotavirus replication than with non-targeting control
Call rule: In these data the active calls have z-score vs non-targeting control at about -1 or lower, or at about 1 or higher
Calls: active = z-score beyond 1 either way; inactive = z-score within 1 of zero

no.	target gene	PubChem SID	z-score vs non-targeting control
1	ZBTB17	SID329575904	-2.33 (active)
2	F8A3	SID329584635	-0.0916
3	LRFN4	SID329580794	0.522
4	ZCCHC9	SID329581555	-0.94
5	G3BP1	SID329576991	-0.79
6	JOSD1	SID329576878	0.595
7	OR8U9	SID329584654	0.105
8	SLC39A1	SID329578520	-1.61 (active)
9	EIF3F	SID329576224	-1.48 (active)
10	TBC1D24	SID329580244	0.68
11	CDO1	SID329573121	0.823
12	SS18L1	SID329578286	-0.784
13	ORC4	SID329574715	-0.405
14	PNOC	SID329574877	-0.0954
15	ZNF562	SID329579402	0.0167
16	SVEP1	SID329581108	0.575
17	KRTAP1-3	SID329581364	-1.17 (active)
18	RAB25	SID329580163	1.4 (active)
19	GLP2R	SID329576537	1.11 (active)
20	ASPN	SID329579415	-2.23 (active)
21	RBBP8	SID329575088	-0.214
22	LARP4B	SID329577857	-1.21 (active)
23	KRTDAP	SID329584327	-0.0737
24	CARD16	SID329582213	1.04 (active)
25	CCDC170	SID329581148	-5.59 (active)
26	TFDP2	SID329575616	-0.803
27	PITRM1	SID329577220	0.515
28	TRIP11	SID329576529	-1.78 (active)
29	IRF2BPL	SID329580592	-0.0891
30	COX5B	SID329573229	-1.55 (active)
31	OR52L1	SID329584032	0.0473
32	CBFA2T3	SID329573023	0.945
33	TMEM121B	SID329578594	-0.251
34	SELENOO	SID329581426	0.569
35	EEF1AKMT3	SID329578210	0.818
36	UGT1A9	SID329579344	-2.23 (active)
37	AKAP4	SID329576318	-1.36 (active)
38	SERPINB7	SID329576251	-1.78 (active)
39	ATP8B3	SID329582969	-2.24 (active)
40	KRT71	SID329582167	-2.98 (active)
41	CYCS	SID329579256	-1.69 (active)
42	ADSS1	SID329582443	-2.69 (active)
43	FRG2B	SID329584601	-0.808
44	HDX	SID329582778	-0.797
45	CFC1	SID329579950	0.239
46	LRFN3	SID329580884	-0.725
47	RTTN	SID329578219	-0.331
48	RTF1	SID329577845	-0.859
49	ACTB	SID329572675	-0.172
50	NPPA	SID329574660	-0.788
51	HPCAL1	SID329574035	0.642
52	MTREX	SID329578031	1.34 (active)
53	DOCK1	SID329573432	-0.0856
54	P2RY13	SID329579229	-0.797
55	ABHD5	SID329578905	1.18 (active)
56	ADAM19	SID329576259	-0.99
57	OR6F1	SID329584117	-0.441
58	FECH	SID329573629	-1.32 (active)
59	FXR1	SID329576003	1
60	FOXS1	SID329573662	1.5 (active)
61	KIZ	SID329579908	-0.356
62	DNM1	SID329573417	0.548
63	MRPS21	SID329579280	1.08 (active)
64	KRT86	SID329574263	-0.343
65	PSMC5	SID329574989	2.05 (active)
66	CNOT7	SID329578700	-0.813
67	PLCB3	SID329574853	-0.848
68	CRYGD	SID329573272	-0.183
69	RALA	SID329575064	-1.65 (active)
70	HPSE2	SID329580479	0.851
71	PRR32	SID329584757	-1.42 (active)
72	MMP2	SID329574460	0.906
73	ADGRV1	SID329581504	-0.606
74	URB2	SID329576811	0.291
75	PIGS	SID329582129	-0.341
76	USP12	SID329583485	0.885
77	RLBP1	SID329575131	1.02 (active)
78	C5orf15	SID329580108	-1.28 (active)
79	NUP155	SID329576696	0.0002
80	ZNF787	SID329582536	-0.818
81	GLRX3	SID329577224	-1.02 (active)
82	POLR3GL	SID329581566	-1.6 (active)
83	NECAB2	SID329579325	1.06 (active)
84	TM4SF18	SID329582312	-0.932
85	HLA-DRB5	SID329573973	-1.45 (active)
86	TMEM244	SID329583683	0.256
87	HCST	SID329577396	0.642
88	FMN2	SID329580056	0.136
89	KRTAP10-8	SID329584281	-0.547
90	KEL	SID329574210	0.669
91	LEPR	SID329574291	1.05 (active)
92	CA13	SID329584270	1.33 (active)
93	OR10V1	SID329584406	-2.17 (active)
94	C14orf119	SID329579524	1.2 (active)
95	PPT1	SID329574929	0.728
96	OR4K5	SID329580872	-0.587
97	TTC29	SID329581476	-0.68
98	SBDS	SID329578921	-0.835
99	CSF1	SID329573278	0.566
100	ZNF142	SID329575901	0.998
101	AHRR	SID329580253	0.237
102	TBX5	SID329575572	0.178
103	LRRC42	SID329582266	-1.73 (active)
104	VTI1B	SID329577195	0.958
105	CDK5RAP3	SID329581194	-1.26 (active)
106	SPCS1	SID329578616	-1.16 (active)
107	CIB1	SID329577209	-0.777
108	BRD8	SID329577416	0.945
109	HSPBAP1	SID329580942	0.734
110	CETN3	SID329573142	-1.03 (active)

Entries above whose target name begins with R or r (6):
target gene	PubChem SID	z-score vs non-targeting control
RAB25	SID329580163	1.4 (active)
RBBP8	SID329575088	-0.214
RTTN	SID329578219	-0.331
RTF1	SID329577845	-0.859
RALA	SID329575064	-1.65 (active)
RLBP1	SID329575131	1.02 (active)
